B1: 09–1B12-UCA Fab (Lys-C digest of recombinant IgG, used for BLI) (Fab, V domains shown)
VH: QVQLVQSGAEVKKPGASVKVSCKASGYTFTSYGISWVRQAPGQGLEWMGWISAYNGNTNYAQKLQGRVTMTTDTSTSTAYMELRSLRSDDTAVYYCARGLLQGVVILDSYYYTMDVWGQGTTVTVSS
VL: not shown
B2: 09–1B12 Fab (mature; Lys-C digest of recombinant IgG, used for BLI) (Fab, V domains shown)
VH: QVQLVQSAPEVKRPGASVRLSCKASGYTFNTYGIIWVRQAPGQGLEWMGWISAYTGNTNYAQKVQGRVTMTTDITTSTAYLELRGLRSDDTAVYYCARGLLQGAVILDSYHYALDFWGQGTTVTVSS
VL: EIVLTQSPGTLSLSPGERATLSCRASQSVTNRFIAWYQHKPGQSPRLLIYGASSRATGIPDRFSGRGSGTDFTLTISRLEPEDFAVYYCQQYDTSPRWTFGQGTKLEIK

What was measured:
[1] = target: A/Shanghai/02/2013 H7 trimer (biotinylated, for BLI) (Influenza A virus A/Shanghai/02/2013 …, UniProt R4NN21, strain, biotin on the avi tag (BirA)); conditions: both partners purified
[2] = target: A/Indonesia/05/2005 H5 trimer (biotinylated, for BLI) (Influenza A virus A/Indonesia/5/2005 …, UniProt C5MRF2, strain, biotin on the avi tag (BirA)); conditions: both partners purified

| Binder | Kd [1] | binding result [2] | binding result [1] |
| --- | --- | --- | --- |
| B1 | 2680 nM | no binding | – |
| B2 | – | – | binds |
